Pooled drug test results. Numbers come from NIAID ChemDB, via PubChem.

All rows: enzyme or target tests; organism: HIV-1; target: gp120

Fold resistance: result on the changed form divided by that on wild type. Percent inhibition refers to the dose given; in toxicity tests it is the harm to the cells. Blank or dashed fields: not listed here. Neighbouring rows are from separate reports. ICn: concentration for n% inhibition.

C[C@@H](O)[C@H](NC(=O)[C@H](CC(=O)O)NC(=O)[C@H](Cc1c[nH]c2ccccc12)NC(=O)[C@@H]1CCCN1C(=O)[C@H](Cc1c[nH]c2ccccc12)NC(=O)[C@@H](N)CO)C(=O)N[C@@H](Cc1c[nH]c2ccccc12)C(=O)O ; strain or isolate: SF2 ; read by: ELISA ; read-out: IC50 ; value: 21 µM
COc1ccnc2[nH]cc(C(=O)C(=O)N3CCN(C(=O)c4ccccc4)C[C@H]3C)c12 ; strain or isolate: NL4-3 ; changes: GP120-M475I ; read by: ELISA ; read-out: fold resistance ; value: >97
CC(C)(CS(=O)(=O)[O-])[NH2+]C(=O)C(CC(F)(OC(F)(F)C(F)(OC(F)(F)C(F)(OC(F)(F)C(F)(F)C(F)(F)F)C(F)(F)F)C(F)(F)F)C(F)(F)F)C(F)(OC(F)(F)C(F)(OC(F)(F)C(F)(OC(F)(F)C(F)(F)C(F)(F)F)C(F)(F)F)C(F)(F)F)C(F)(F)F ; read by: ELISA ; read-out: inhibition ; dose: 0.16 µg/mL ; value: 38%
O=CC1OC(=O)c2cc(O)c(O)c(O)c2Oc2cc3c(c(O)c2O)-c2c(cc(O)c(O)c2O)C(=O)OCC2OC(OC(=O)c4cc(O)c(O)c(O)c4Oc4cc5c(c(O)c4O)-c4c(cc(O)c(O)c4O)C(=O)OC(C(O)COC5=O)C1OC(=O)c1cc(O)c(O)c(O)c1)C(OC(=O)c1cc(O)c(O)c(O)c1)C(OC(=O)c1cc(O)c(O)c(O)c1)C2OC3=O ; read by: binding ; read-out: inhibition ; dose: 12.5 µg/mL ; value: 60.9%
C=Cc1c(C)c2cc3[nH]c(cc4nc(cc5nc(cc1[nH]2)C(C)=C5CCC(=O)O)C(CCC(=O)O)=C4C)c(C)c3C=C ; read-out: inhibition ; dose: 60 µg/mL ; value: 55.8%
NOCc1c(F)cccc1Cl ; read by: ELISA ; read-out: inhibition ; dose: 0.8 µg/mL ; value: 9.2%
O=CC(O)C(OC(=O)c1cc(O)c(O)c(O)c1)C1OC(=O)c2cc(O)c(O)c(O)c2-c2c(cc(O)c(O)c2O)C(=O)OCC1O ; read by: binding ; read-out: inhibition ; dose: 1.56 µg/mL ; value: 0.7%
O=C(C(=O)N1CCN(C(=O)c2ccccc2)CC1)c1c[nH]c2ccccc12 ; strain or isolate: YU2 ; read by: ELISA ; read-out: inhibition ; dose: 1 µM ; value: 80%
Cc1ncc(COP(=O)(O)O)c(C=O)c1O ; read by: binding ; read-out: Ki ; value: 15 µM
CC1(C)CC(NC(=O)C(=O)Nc2ccc(Br)cc2)CC(C)(C)N1 ; strain or isolate: MN ; read by: ELISA ; read-out: IC50 ; value: 4.21 µM
CCCCCCC[C@H]1CC2CCC3=C(C(=O)OCCCCN=C(N)N)C(CCCCC)N=C(N1)N32 ; read-out: IC50 ; value: >100 µM
CSCC[C@H](NC(=O)[C@@H]1CCCN1C(=O)[C@H](Cc1cnc[nH]1)NC(=O)[C@H](Cc1c[nH]c2ccccc12)NC(=O)[C@@H](N)Cc1ccccc1)C(=O)N[C@@H](Cc1cnc[nH]1)C(=O)N[C@@H](CC(=O)O)C(=O)O ; strain or isolate: HXB2 ; read by: ELISA ; read-out: IC50 ; value: >500 µM
C=Cc1c(C)c2cc3nc(cc4[nH]c(cc5nc(cc1[nH]2)C(C)=C5CO)c(C)c4CCC(=O)O)C(CCC(=O)O)=C3C ; read-out: inhibition ; dose: 60 µg/mL ; value: 68.7%
CCCCCCCCC[C@H]1CC2CCC3C(C(=O)OCCCCCCCCCC4N=C(N)N5CCCC5=C4C(=O)OCCCCN=C(N)N)[C@@H](C)N=C(N1)N23 ; read by: ELISA ; read-out: IC50 ; value: 29 µM
COC(=O)C(=O)N1CCC[C@@H]1C(=O)N[C@H](Cc1ccccc1)C(=O)OCc1ccccc1 ; read by: ELISA ; conditions: 3% FBS ; read-out: inhibition ; dose: 500 µM ; value: 17%
CC1=C(CCC(=O)O)c2cc3[nH]c(cc4nc(cc5[nH]c(cc1n2)c(CCC(=O)O)c5CC(=O)O)C(CCC(=O)O)=C4C)c(CCC(=O)O)c3CC(=O)O ; read-out: inhibition ; dose: 60 µg/mL ; value: 40.3%
O=C(OC[C@H]1O[C@@H](O)[C@@H]2OC(=O)c3cc(O)c(O)c(O)c3-c3c(cc(O)c(O)c3O)C(=O)O[C@H]2[C@@H]1OC(=O)c1cc(O)c(O)c(O)c1Oc1cc2c(c(O)c1O)-c1c(cc(O)c(O)c1O)C(=O)O[C@@H]1[C@@H](OC2=O)[C@H](OC(=O)c2cc(O)c(O)c(O)c2)O[C@@H]2COC(=O)c3cc(O)c(O)c(O)c3-c3c(cc(O)c(O)c3O)C(=O)O[C@@H]12)c1cc(O)c(OC(=O)c2cc(O)c(O)c(O)c2)c(O)c1 ; read by: binding ; read-out: inhibition ; dose: 12.5 µg/mL ; value: 81%

For reference, 2 entries again:

smiles	strain or isolate	changes	read by	conditions	read-out	dose	value
CC1(C)CC(NC(=O)C(=O)Nc2ccc(Br)cc2)CC(C)(C)N1	MN		ELISA		IC50		4.21 µM
CCCCCCCCC[C@H]1CC2CCC3C(C(=O)OCCCCCCCCCC4N=C(N)N5CCCC5=C4C(=O)OCCCCN=C(N)N)[C@@H](C)N=C(N1)N23			ELISA		IC50		29 µM